Values of other authors, collected in article PMC11768059, “Guanidines Conjugated with Cell-Penetrating Peptides: A New Approach for the Development of Antileishmanial Molecules” (Molecules, 2025).

Biological target: cysteine protease LmCPB2.8∆CTE (CPB) (Leishmania mexicana, UniProt P36400)
Conditions: read-out: IC50 on LmCPB2.8∆CTE (CPB); cited from earlier work

For `CC(C)(C)c1ccc(N=C(NCc2ccccc2)NC(=O)c2ccccc2)cc1`, the IC50 is listed as 6 µM.
